Measured values from several laboratories, pooled; numbers as filed in NIAID ChemDB.

All rows: cytotoxicity tests; cells: MT-4; measure: CC50

An empty or dashed field is not shown. Lines come from different laboratories, so protocols vary. CCn: concentration that lowers growth or viability of the cells by n%.

structure | setting | method | result
CCCCCCCCCCCCCCCCCC(=O)Oc1c2n(cc(C(=O)NCc3ccc(F)cc3F)c1=O)[C@@H]1CN(C2=O)[C@@H](C)CC[C@]12CC(C)=NO2 |  | luminescence | 50 µM
CCc1c(Cc2ccccc2)nc(SCC(OC)OC)[nH]c1=O |  |  | <100 µM
CC1=C(C(=O)Nc2cccc(C)c2)C2=NN=C(N)C2C(=O)N1 |  | MTT | 67.2 µg/mL
CCCCCCCCCCCCCCCCCCOC(=O)OCOc1c2n(cc(C(=O)NCc3ccc(F)cc3F)c1=O)[C@@H]1CN(C2=O)[C@@H](C)CC[C@]12CC(C)=NO2 |  | luminescence | 50 µM
Cc1ccc(NC(=S)OCC(C)N2C(=O)c3ccc(C)cc3C2=O)cc1 |  |  | >100 µM
CCOC1CSc2nc(Cc3ccccc3)c(CC)c(=O)n21 |  |  | >100 µM
CC1CCNC2CCCCC2NC(C)CCNC2CCCCC2N1 |  | MTT | >372 µM
COc1ccc(NC(=O)C2=C(C)NC(=O)C3C(N)=NN=C23)cc1 |  | MTT | 88.8 µg/mL
CCc1c(Cc2cccc3ccccc23)nc2n(c1=O)C(OCCO)CS2 |  |  | <100 µM
C=C1CN(S(=O)(=O)c2ccc(C)cc2)CCCN(Cc2ccccn2)CCCN(S(=O)(=O)c2ccc(C)cc2)C1 |  | trypan blue / propidium iodide | >75 µM
COc1cc(/C=C/c2nc(NC(=S)Nc3ccccc3Cl)c3ccccc3n2)cc(OC)c1OC |  | MTT | 3.85 µg/mL
CCc1c(Sc2ccccc2)n(C/C=C/c2cccs2)c(=O)[nH]c1=O |  |  | >1 µM
CCCCCCNc1c(N=Nc2ccc(-c3ccc(F)cc3)cc2)c(N)nc(=O)n1C |  | MTT | 11.66 µM
CC(=O)NC[C@H]1CN(c2ccc(N3CCSCC3)c(F)c2)C(=O)O1 |  |  | >100 µM
CCOC(=O)c1cccn1S(=O)(=O)c1ccc(NC=O)cc1 |  |  | 114 µM
CCCCCCCCCC(=O)OCOc1c2n(cc(C(=O)NCc3ccc(F)cc3F)c1=O)[C@@H]1CN(C2=O)[C@@H](C)CC[C@]12CC(C)=NO2 |  | luminescence | 50 µM
CCc1c(Cc2ccccc2)nc2n(c1=O)C(OCCO)CS2 |  |  | >100 µM
C=C1CN(S(=O)(=O)c2ccc(C)cc2)CCCN(CCC)CCCN(S(=O)(=O)c2ccc(C)cc2)C1 |  | trypan blue / propidium iodide | 36.4 µM
CC(C)(C)OC(=O)N(CCCCCCN(Cc1ccccc1)C(=O)OC(C)(C)C)CCCCCC(=O)N(CC(=O)CN(Cc1ccccc1)C(=O)CCCCCN(CCCCCCN(Cc1ccccc1)C(=O)OC(C)(C)C)C(=O)OC(C)(C)C)Cc1ccccc1 |  |  | 50 µM
CC(=O)N[C@H]1CSSC[C@@H](C(=O)N[C@@H](Cc2ccc(O)cc2)C(=O)O)NC(=O)[C@H](CCCCN)NC(=O)[C@H](CC(N)=O)NC1=O | 2 d | MTT | >2.5 µM
COc1cc(/C=C/c2nc(NC(=S)Nc3ccccc3C)c3ccccc3n2)cc(OC)c1OC |  | MTT | 4.05 µg/mL
CCCCCCCCCCCCCCCCOC(=O)Oc1c2n(cc(C(=O)NCc3ccc(F)cc3F)c1=O)[C@@H]1CN(C2=O)[C@@H](C)CC[C@]12CC(C)=NO2 |  | luminescence | 50 µM
CC1=C(C(=O)Nc2ccc(Br)cc2)C2=NN=C(N)C2C(=O)N1 |  | MTT | 94.6 µg/mL
CCCCCCCCCCCCCCCCCCOC(=O)OCOc1c2n(cc(C(=O)NCc3ccc(F)cc3F)c1=O)[C@@H]1CN(C2=O)[C@@H](C)CC[C@]12CC(OC)=NO2 |  | luminescence | 50 µM
Cc1ccc2c(c1)C(=O)N(CCOC(=S)Nc1ccc(Cl)c(Cl)c1)C2=O |  |  | >100 µM
Cc1ccc(S(=O)(=O)N2CCCN(Cc3ccccc3)CCCN(S(=O)(=O)c3ccc(C)cc3)CCC2)cc1 |  | trypan blue / propidium iodide | 38 µM
COc1cc(/C=C/c2nc(NC(=O)Nc3cccc(C)c3)c3ccccc3n2)cc(OC)c1OC |  | MTT | 0.96 µg/mL
COC1CSc2nc(=O)c(C(C)C)c(Cc3ccccc3)n21 |  |  | >100 µM
CC(C)(C)OC(=O)N(CCCCCC(=O)N(Cc1ccccc1)CC(O)CN(Cc1ccccc1)C(=O)CCCCCN(Cc1ccccc1)C(=O)OC(C)(C)C)Cc1ccccc1 |  |  | 50 µM
CCCCCC(=O)Nc1ccc(Cl)cc1S(=O)(=O)n1cccc1C(=O)OCC |  |  | >200 µM
CC1=C(C(=O)Nc2ccc(Cl)cc2)C2=NN=C(N)C2C(=O)N1 |  | MTT | 93.5 µg/mL
CC(C)c1ccc(C(=O)Nc2ccc(S(=O)(=O)[O-])c3cc(S(=O)(=O)[O-])cc(S(=O)(=O)[O-])c23)cc1NC(=O)Nc1cc(C(=O)Nc2ccc(S(=O)(=O)[O-])c3cc(S(=O)(=O)[O-])cc(S(=O)(=O)[O-])c23)ccc1C(C)C.[Na+].[Na+].[Na+].[Na+].[Na+].[Na+] |  |  | >500 µg/mL
CCc1c(Cc2cc(C)cc(C)c2)nc2n(c1=O)C(OCCO)CS2 |  |  | >100 µM
CC(C)CN(C[C@@H](O)[C@H](Cc1ccccc1)NC(=O)O[C@H]1CO[C@H]2OCC[C@H]21)S(=O)(=O)c1ccc(-c2csc(NCCCN(C)C)n2)cc1 |  | MTT | 20.4 µM
CCOC(=O)c1ccc(-c2ccc(N=Nc3c(N)nc(=O)n(C)c3-c3ccc(C(=O)OCC)cc3)cc2)cc1 |  | MTT | 28.24 µM
CC(C)CN(C[C@@H](O)[C@H](Cc1ccccc1)NC(=O)O[C@H]1CO[C@H]2OCC[C@H]21)S(=O)(=O)c1ccc(-c2coc(-c3ccc(C#N)cc3)n2)cc1 |  | MTT | >32.4 µM
C=C1CN(S(=O)(=O)c2ccc(N)cc2)CCCN(Cc2ccccc2)CCCN(S(=O)(=O)c2ccc(N)cc2)C1 |  | trypan blue / propidium iodide | 34.3 µM
Cn1c(-c2ccc(F)cc2)c(N=Nc2ccc(-c3ccc(F)cc3)cc2)c(N)nc1=O |  | MTT | 66.6 µM
COc1cc(/C=C/c2nc(NC(=O)Nc3ccc([N+](=O)[O-])cc3)c3ccccc3n2)cc(OC)c1OC |  | MTT | 1.72 µg/mL
CC(C)c1c(Cc2ccccc2)n2c(nc1=O)SCC2OCCO |  |  | >100 µM
COc1ccccc1NC(=O)Nc1nc(/C=C/c2cc(OC)c(OC)c(OC)c2)nc2ccccc12 |  | MTT | 2.03 µg/mL
CCc1ccc(NC(=S)OCCN2C(=O)c3ccc(C)cc3C2=O)cc1 |  |  | >100 µM
COc1cc(/C=C/c2nc(NC(=O)Nc3cccc([N+](=O)[O-])c3)c3ccccc3n2)cc(OC)c1OC |  | MTT | 1.17 µg/mL
CNc1nc(-c2ccc(S(=O)(=O)N(CC(C)C)C[C@@H](O)[C@H](Cc3ccccc3)NC(=O)O[C@H]3CO[C@H]4OCC[C@H]43)cc2)cs1 |  | MTT | 64.6 µM
CC(C)(C)OC(=O)N(CCCCCCN(Cc1ccccc1)C(=O)OC(C)(C)C)CCCCCC(=O)N(Cc1ccccc1)CC(O)CN(Cc1ccccc1)C(=O)CCCCCN(CCCCCCN(Cc1ccccc1)C(=O)OC(C)(C)C)C(=O)OC(C)(C)C |  |  | 10 µM
Cc1c(Sc2ccccc2)n(COCCBr)c(=O)[nH]c1=O |  |  | >1 µM
O=S(=O)(O)c1cc(S(=O)(=O)O)c2c(Nc3ccnc4cc(Cl)ccc34)ccc(S(=O)(=O)O)c2c1 |  |  | >500 µg/mL
C=C1CN(S(=O)(=O)c2ccc(C)cc2)CCCN(C(C)CC)CCCN(S(=O)(=O)c2ccc(C)cc2)C1 |  | trypan blue / propidium iodide | 42.6 µM
CCc1c(Cc2cccc3ccccc23)n2c(nc1=O)SCC2OC |  |  | >100 µM
CCOC(=O)c1cccn1S(=O)(=O)c1cc(Cl)ccc1NC(=O)CC |  |  | >200 µM
CC(C)(C)OC(=O)N(CCCN(Cc1ccccc1)C(=O)OC(C)(C)C)CCC(=O)N(Cc1ccccc1)CC(O)CN(Cc1ccccc1)C(=O)CCN(CCCN(Cc1ccccc1)C(=O)OC(C)(C)C)C(=O)OC(C)(C)C |  |  | >50 µM
C=C1CN(S(=O)(=O)c2ccc(C)cc2)CCCN(Cc2ccncc2)CCCN(S(=O)(=O)c2ccc(C)cc2)C1 |  | trypan blue / propidium iodide | 32.4 µM
CCOC(=O)c1cccn1S(=O)(=O)c1cc(Cl)ccc1NC(=O)COC |  |  | 136.7 µM
CC(C)(C)OC(=O)N(CCCCCC(=O)N(CC(=O)CN(Cc1ccccc1)C(=O)CCCCCN(Cc1ccccc1)C(=O)OC(C)(C)C)Cc1ccccc1)Cc1ccccc1 |  |  | >50 µM
Cc1ccc2c(c1)C(=O)N(CCOC(=S)Nc1ccc(C)c(Cl)c1)C2=O |  |  | >100 µM
COc1ccc(-c2ccc(N=Nc3c(N)nc(=O)n(C)c3N(Cc3ccccc3)Cc3ccccc3)cc2)cc1OC |  | MTT | 2.29 µM
CC1=NO[C@@]2(CC[C@H](C)N3C[C@H]2n2cc(C(=O)NCc4ccc(F)cc4F)c(=O)c(O[C@@H](C)OC(=O)OC(C)C)c2C3=O)C1 |  | luminescence | 50 µM
CC(=O)N[C@H]1CSSC[C@@H](C(=O)N[C@@H](CCC(N)=O)C(=O)O)NC(=O)[C@H](Cc2cnc[nH]2)NC(=O)[C@H](Cc2ccc(O)cc2)NC1=O | 2 d | MTT | >2.5 µM
CCc1ccc(C(=O)Nc2ccc(S(=O)(=O)O)c3cc(S(=O)(=O)O)cc(S(=O)(=O)O)c23)cc1NC(=O)c1cccc(NC(=O)Nc2cccc(C(=O)Nc3cc(C(=O)Nc4ccc(S(=O)(=O)O)c5cc(S(=O)(=O)O)cc(S(=O)(=O)O)c45)ccc3CC)c2)c1 |  |  | >50 µg/mL
CC(C)c1c(Cc2ccccc2)n2c(nc1=O)SCC2CBr |  |  | <100 µM
O=C(Nc1ccc(C(=O)Nc2ccc(P(=O)(O)O)cc2)cc1)Nc1ccc(C(=O)Nc2ccc(P(=O)(O)O)cc2)cc1 |  |  | >500 µg/mL
CSCC[C@H](C(=O)N1CCNCC1c1c[nH]c2ccccc12)N1CCCNCC1 |  | MTT | >50 µM
CCc1c(Sc2ccccc2)n(C/C=C/c2ccccc2)c(=O)[nH]c1=O |  |  | >1 µM
COc1ccccc1NC(=O)C1=C(C)NC(=O)C2C(N)=NN=C12 |  | MTT | >100 µg/mL
Cc1c(Sc2ccccc2)n(COCCI)c(=O)[nH]c1=O |  |  | >1 µM
COc1ccc(NC(=S)Nc2nc(/C=C/c3cc(OC)c(OC)c(OC)c3)nc3ccccc23)cc1 |  | MTT | 4.43 µg/mL
CC(=O)OC(c1ccccc1)c1nc(-c2ccc(S(=O)(=O)N(CC(C)C)C[C@@H](O)[C@H](Cc3ccccc3)NC(=O)O[C@H]3CO[C@H]4OCC[C@H]43)cc2)co1 |  | MTT | >100 µM

6 of the rows above, restated:

structure	setting	method	result
CC(C)(C)OC(=O)N(CCCCCCN(Cc1ccccc1)C(=O)OC(C)(C)C)CCCCCC(=O)N(CC(=O)CN(Cc1ccccc1)C(=O)CCCCCN(CCCCCCN(Cc1ccccc1)C(=O)OC(C)(C)C)C(=O)OC(C)(C)C)Cc1ccccc1			50 µM
Cc1ccc(NC(=S)OCC(C)N2C(=O)c3ccc(C)cc3C2=O)cc1			>100 µM
COc1cc(/C=C/c2nc(NC(=O)Nc3ccc([N+](=O)[O-])cc3)c3ccccc3n2)cc(OC)c1OC		MTT	1.72 µg/mL
Cc1c(Sc2ccccc2)n(COCCBr)c(=O)[nH]c1=O			>1 µM
CC(=O)OC(c1ccccc1)c1nc(-c2ccc(S(=O)(=O)N(CC(C)C)C[C@@H](O)[C@H](Cc3ccccc3)NC(=O)O[C@H]3CO[C@H]4OCC[C@H]43)cc2)co1		MTT	>100 µM
CCOC1CSc2nc(Cc3ccccc3)c(CC)c(=O)n21			>100 µM